This series has as its system hypervirulent and nonhypervirulent strains of C. difficile (62 strains). The experiment in a line: MIC distribution against 20 hypervirulent and 42 nonhypervirulent strains. The series is classed as cell-based, Clostridioides difficile. The following applies: Wilcoxon rank sum test.
As for `Cc1c(-c2cnc(N)c(C#N)c2)c(F)cc2c(=O)c(C(=O)O)cn(C3CC3)c12` [OPS-2071, 7-(6-amino-5-cyanopyridin-3-yl)-1-cyclopropyl-6-fluoro-8-methyl-4-oxo-1,4-dihydroquinoline-3-carboxylic acid], the “difference in susceptibility between hypervirulent and nonhypervirulent strains” value (“difference” for short) is “no significant difference”.

As to `CCc1c(Cl)c(O)c(Cl)c(O)c1C(=O)O[C@H]1[C@H](O)[C@H](OC)[C@H](OC/C2=C\C=C\C[C@H](O)/C(C)=C/[C@H](CC)[C@@H](O[C@@H]3OC(C)(C)[C@@H](OC(=O)C(C)C)[C@H](O)[C@@H]3O)/C(C)=C/C(C)=C/C[C@@H]([C@@H](C)O)OC2=O)O[C@@H]1C` [Fidaxomicin], the “difference” value was “significant differences”.

With `CN[C@H](CC(C)C)C(=O)N[C@H]1C(=O)N[C@@H](CC(N)=O)C(=O)N[C@H]2C(=O)N[C@H]3C(=O)N[C@H](C(=O)N[C@H](C(=O)O)c4cc(O)cc(O)c4-c4cc3ccc4O)[C@H](O)c3ccc(c(Cl)c3)Oc3cc2cc(c3O[C@@H]2O[C@H](CO)[C@@H](O)[C@H](O)[C@H]2O[C@H]2C[C@](C)(N)[C@H](O)[C@H](C)O2)Oc2ccc(cc2Cl)[C@H]1O` [Vancomycin], the “difference” value is given as “no significant difference”.

On to `Cc1ncc([N+](=O)[O-])n1CCO` [Metronidazole], for which the “difference” value is listed as “significant differences”.

Values taken from article PMC8097418, “In Vitro and In Vivo Antibacterial Activities of a Novel Quinolone Compound, OPS-2071, against Clostridioides difficile” (Antimicrobial Agents and Chemotherapy, 2021).
